In PMC12432378 (Cell Reports Medicine, 2025):

What was measured:
[1] = system: HCoV-OC43; assay: Lethal HCoV-OC43-infected mouse model; type: in vivo; settings: newborn ICR mice, 3 mg/kg intranasal 30 min after challenge, n = 6; rapid recovery by 8 dpi; Figure S7C
[2] = system: inflammatory genes in MjHKU4r-CoV-1-infected Caco-2 cells; assay: Inflammatory gene expression induced by MjHKU4r-CoV-1 infection in Caco-2 cells, RT-qPCR; settings: 40 nM peptide

With CC[C@H](C)[C@H](NC(=O)[C@H](C)NC(=O)[C@H](CCSC)NC(=O)[C@H](CCC(=O)O)NC(=O)[C@H](CC(=O)O)NC(=O)[C@H](CO)NC(=O)[C@H](CC(C)C)NC(=O)[C@H](CC(=O)O)NC(=O)[C@H](CC(C)C)NC(=O)[C@H](CC(C)C)NC(=O)[C@@H](NC(=O)[C@@H](NC(=O)[C@H](CC(N)=O)NC(=O)[C@@H](NC(=O)[C@H](CCCCN)NC(=O)[C@H](CO)NC(=O)[C@@H](NC(=O)[C@H](CCC(=O)O)NC(C)=O)[C@@H](C)CC)[C@@H](C)CC)C(C)C)[C@@H](C)O)C(=O)N[C@@H](CC(C)C)C(=O)N[C@@H](CC(C)C)C(=O)N[C@@]1(C)CCCC=CCCC[C@@](C)(C(=O)N[C@@H](CC(C)C)C(=O)N[C@@H](CC(N)=O)C(=O)N[C@@H](CC(=O)O)C(=O)N[C@@H](CO)C(=O)N[C@@H](Cc2ccc(O)cc2)C(=O)N[C@H](C(=O)N[C@@H](CC(=O)O)C(=O)N[C@@H](CC(C)C)C(=O)N[C@@H](CCCCN)C(=O)N[C@@H](CCC(=O)O)C(=O)N[C@@H](CC(C)C)C(N)=O)[C@@H](C)CC)NC(=O)[C@H](CCCCN)NC(=O)[C@H]([C@@H](C)CC)NC(=O)[C@H](C)NC1=O [MjHKU4r-HR2P10] the “Body weight change after HCoV-OC43 challenge” value [1] was “only minimal weight loss”, the “Upregulation of inflammatory genes (IL-6, TNF-α, IFN-β1, IFN-λ1, and IFN-λ3) induced by MjHKU4r-CoV infection” value ([2]; Figure 6F) was “completely blocked” and the “Upregulation of inflammatory genes (CXCL2, CCL5, IFN-λ2) induced by MjHKU4r-CoV-1 infection” value ([2]; Figure S6) was “completely blocked”.
